PubChem BioAssay AID624099 | ICCB-Longwood – 2012
The whole screen tested about 21,000 reagents; this is an unselected part. Over the whole deposit, 497 (2.4%) got an active call. 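Higher z means weaker E2 silencing; only reporter increases were scored, and knock-downs that hurt cell survival may mask genuine repressor factors.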 The numbers tell different reagents against one gene apart.

Assay: 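Host factors E2 relies on to silence an HPV18 LCR reporter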 (primary screen)
Cell system: human C33A cervical carcinoma cells (HPV-negative) stably expressing BPV1 E2 and an HPV18 LCR luciferase reporter
Reagent: siRNA pool against human genes, 40 nM
Time to read-out: 72 h
Read-out: 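HPV18 LCR reporter light per well, converted to plate-wise z-scores that exclude control wells, and averaged over triplicate plates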
Direction: mean z-score and z-score: higher = stronger reporter signal, weaker E2 silencing
Call rule: 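Mean z ≥ 2 together with z ≥ 2 in two or more of the three replicates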

| Gene | reagent no. | mean z-score | z-score, replicate A | z-score, replicate B | z-score, replicate C | Outcome |
| --- | --- | --- | --- | --- | --- | --- |
| LOC389651 (retired record) | 1 | 1.09 | 0.95 | 1.18 | 1.13 | inactive |
| PRNT (prion locus lncRNA, testis expressed) | 1 | 0.72 | 0.73 | 0.53 | 0.89 | inactive |
| ZHX1 (zinc fingers and homeoboxes 1) | 1 | -0.37 | -0.43 | -0.5 | -0.18 | inactive |
| KLF16 (KLF transcription factor 16) | 1 | -0.98 | -1.12 | -0.79 | -1.03 | inactive |
| ECD (ecdysoneless cell cycle regulator) | 1 | -0.3 | -0.28 | -0.35 | -0.28 | inactive |
| ZNF561-AS1 (ZNF561 antisense RNA 1) | 1 | 0.09 | 0.08 | 0.29 | -0.09 | inactive |
| ZMAT1 (zinc finger matrin-type 1) | 1 | -0.51 | -0.61 | -0.34 | -0.57 | inactive |
| SORD (sorbitol dehydrogenase) | 1 | -0.11 | -0.21 | -0.12 | 0 | inactive |
| PCDHA6 (protocadherin alpha 6) | 1 | 1.73 | 1.65 | 1.43 | 2.12 | inactive |
| CYP26B1 (cytochrome P450 family 26 subfamily B member 1) | 1 | 0.22 | 0.32 | 0.12 | 0.22 | inactive |
| RPF2P1 (ribosome production factor 2 homolog pseudogene 1) | 1 | 0.5 | 0.77 | 0.65 | 0.08 | inactive |
| SLC45A3 | 1 | -0.45 | -0.3 | -0.89 | -0.17 | inactive |
| CAPN13 (calpain 13) | 1 | -0.92 | -1.05 | -0.62 | -1.09 | inactive |
| TMEM69 (transmembrane protein 69) | 1 | 0.37 | 0.35 | 0.37 | 0.39 | inactive |
| SH3GLB1 (SH3 domain containing GRB2 like, endophilin B1) | 1 | 1.27 | 0.97 | 0.7 | 2.13 | inactive |
| BAHD1 (bromo adjacent homology domain containing 1) | 1 | -0.76 | -0.83 | -0.62 | -0.82 | inactive |
| ZFP62 (ZFP62 zinc finger protein) | 1 | -0.46 | -0.62 | -0.73 | -0.04 | inactive |
| SHC3 (SHC adaptor protein 3) | 1 | 0.69 | 0.65 | 1.06 | 0.35 | inactive |
| ZSCAN10 (zinc finger and SCAN domain containing 10) | 1 | -0.34 | -0.4 | -0.08 | -0.54 | inactive |
| TMEM31 (transmembrane protein 31) | 1 | -0.4 | -0.09 | -0.68 | -0.42 | inactive |
| POLR1D (RNA polymerase I and III subunit D) | 1 | 0.77 | 0.83 | 0.72 | – | inactive |
| POLR1D (RNA polymerase I and III subunit D) | 2 | 1.43 | 0.97 | 1.87 | 1.47 | inactive |
| RPS6KC1 (ribosomal protein S6 kinase C1) | 1 | -1.04 | -0.71 | -1.23 | -1.18 | inactive |
| H2BC11 (H2B clustered histone 11) | 1 | 1.6 | 1.58 | 1.46 | 1.75 | inactive |
| CA3 (carbonic anhydrase 3) | 1 | -0.57 | -0.92 | -0.11 | -0.67 | inactive |
| ZC3H12A (zinc finger CCCH-type containing 12A) | 1 | -0.1 | 0.29 | -0.38 | -0.23 | inactive |
| ITIH6 (inter-alpha-trypsin inhibitor heavy chain family member 6) | 1 | 0.48 | 0.43 | 0.63 | 0.39 | inactive |
| PI3 (peptidase inhibitor 3) | 1 | -0.72 | -0.64 | -0.65 | -0.86 | inactive |
| NDUFA12 (NADH:ubiquinone oxidoreductase subunit A12) | 1 | -0.95 | -0.51 | -1.27 | -1.08 | inactive |
| HDAC1 (histone deacetylase 1) | 1 | 0.52 | 0.32 | 0.59 | 0.66 | inactive |
| SART1 | 1 | 0.15 | -0.08 | 0.28 | 0.24 | inactive |
| LYSMD2 (LysM domain containing 2) | 1 | 0.4 | 0.05 | 0.45 | 0.68 | inactive |
| LOC387746 (retired record) | 1 | 1.69 | 2.16 | 1.18 | 1.72 | inactive |
| OR11A1 (olfactory receptor family 11 subfamily A member 1) | 1 | 0.52 | 0.64 | 0.61 | 0.31 | inactive |
| IGF2BP2 (insulin like growth factor 2 mRNA binding protein 2) | 1 | 0.32 | 1.26 | -0.41 | 0.11 | inactive |

A portion from the list above, as a working copy:
| Gene | reagent no. | mean z-score | z-score, replicate A | z-score, replicate B | z-score, replicate C | Outcome |
| --- | --- | --- | --- | --- | --- | --- |
| ECD (ecdysoneless cell cycle regulator) | 1 | -0.3 | -0.28 | -0.35 | -0.28 | inactive |
| ZNF561-AS1 (ZNF561 antisense RNA 1) | 1 | 0.09 | 0.08 | 0.29 | -0.09 | inactive |
| ZMAT1 (zinc finger matrin-type 1) | 1 | -0.51 | -0.61 | -0.34 | -0.57 | inactive |
| SORD (sorbitol dehydrogenase) | 1 | -0.11 | -0.21 | -0.12 | 0 | inactive |
| PCDHA6 (protocadherin alpha 6) | 1 | 1.73 | 1.65 | 1.43 | 2.12 | inactive |
| CYP26B1 (cytochrome P450 family 26 subfamily B member 1) | 1 | 0.22 | 0.32 | 0.12 | 0.22 | inactive |
| RPF2P1 (ribosome production factor 2 homolog pseudogene 1) | 1 | 0.5 | 0.77 | 0.65 | 0.08 | inactive |
| SLC45A3 | 1 | -0.45 | -0.3 | -0.89 | -0.17 | inactive |
| CAPN13 (calpain 13) | 1 | -0.92 | -1.05 | -0.62 | -1.09 | inactive |

The results go on:
| Gene | reagent no. | mean z-score | z-score, replicate A | z-score, replicate B | z-score, replicate C | Outcome |
| --- | --- | --- | --- | --- | --- | --- |
| FOXB1 (forkhead box B1) | 1 | 2.89 | 3.13 | 2.66 | 2.89 | active |
| CRYGD (crystallin gamma D) | 1 | 0.53 | 0.28 | 0.64 | 0.66 | inactive |
| HOXB9 (homeobox B9) | 1 | 0.26 | 0.05 | 0.46 | 0.26 | inactive |
| CFAP36 (cilia and flagella associated protein 36) | 1 | 0.89 | 0.82 | 0.83 | 1.03 | inactive |
| IFIT5 (interferon induced protein with tetratricopeptide repeats 5) | 1 | -0.02 | 0.02 | 0.02 | -0.11 | inactive |
| GNRH1 (gonadotropin releasing hormone 1) | 1 | -0.81 | -0.8 | -0.78 | -0.84 | inactive |
| ZNRD2 (zinc ribbon domain containing 2) | 1 | 0.35 | 0.53 | 0.24 | 0.29 | inactive |
| ITPR1 (inositol 1,4,5-trisphosphate receptor type 1) | 1 | 0 | 0.22 | -0.09 | -0.13 | inactive |
| LOC391481 (retired record) | 1 | 0.32 | 0.43 | 0.06 | 0.47 | inactive |
| LOC388586 (retired record) | 1 | 1.89 | 2.08 | 1.9 | 1.71 | inactive |
| CDK20 (cyclin dependent kinase 20) | 1 | -1.63 | -2.02 | -2.05 | -0.83 | inactive |
| TRIM6-TRIM34 (TRIM6-TRIM34 readthrough) | 1 | 0.84 | 0.88 | 0.38 | 1.27 | inactive |
| LOC400829 (retired record) | 1 | 0.2 | 0.14 | 0.41 | 0.06 | inactive |
| ITGAL (integrin subunit alpha L) | 1 | -0.17 | 0.15 | -0.43 | -0.24 | inactive |
| IL17B (interleukin 17B) | 1 | 1.08 | 1.06 | 1.08 | 1.09 | inactive |
| C4BPB (complement component 4 binding protein beta) | 1 | -1.39 | -1.29 | -1.2 | -1.69 | inactive |
| ZPLD1 (zona pellucida like domain containing 1) | 1 | -0.91 | -1.03 | -0.76 | -0.93 | inactive |
| RPL13AP13 (ribosomal protein L13a pseudogene 13) | 1 | 0.21 | 0.47 | -0.12 | 0.29 | inactive |
| LOC388308 (retired record) | 1 | 1.15 | 0.96 | 1.41 | 1.08 | inactive |
| CCDC90B (coiled-coil domain containing 90B) | 1 | 0.15 | -0.36 | -0.07 | 0.89 | inactive |
| GOT1L1 (glutamic-oxaloacetic transaminase 1 like 1) | 1 | -0.96 | -1.22 | -0.69 | -0.95 | inactive |
| LOC401352 (retired record) | 1 | -0.27 | -0.29 | -0.32 | -0.19 | inactive |
| ARF4 (ARF GTPase 4) | 1 | -0.36 | -0.27 | -0.34 | -0.47 | inactive |
| GP1BA (glycoprotein Ib platelet subunit alpha) | 1 | 0.12 | 0.23 | 0.13 | -0.01 | inactive |
| OR52A1 (olfactory receptor family 52 subfamily A member 1) | 1 | 0.37 | 0.42 | 0.53 | 0.17 | inactive |
| GUSB (glucuronidase beta) | 1 | -1.28 | -1.34 | -1.37 | -1.14 | inactive |
| ZDHHC15 (zDHHC palmitoyltransferase 15) | 1 | -0.94 | -0.8 | -0.94 | -1.07 | inactive |
| CASP5 (caspase 5) | 1 | 0.46 | 0.83 | 0.18 | 0.36 | inactive |
| MNT (MAX network transcriptional repressor) | 1 | -0.2 | -0.22 | -0.11 | -0.28 | inactive |
| SIK1 (salt inducible kinase 1) | 1 | 1.25 | 1.17 | 0.99 | 1.6 | inactive |
| SNW1 (SNW domain containing 1) | 1 | 1.32 | 1.09 | 1.5 | 1.39 | inactive |
| SEZ6L2 (seizure related 6 homolog like 2) | 1 | 0.26 | 0.16 | 0.19 | 0.44 | inactive |
| LOC402340 (retired record) | 1 | 0.73 | 0.7 | 0.7 | 0.77 | inactive |
| SNX4 (sorting nexin 4) | 1 | 0.48 | 0.53 | 0.43 | 0.49 | inactive |
| VSTM2L (V-set and transmembrane domain containing 2 like) | 1 | -1.58 | -1.79 | -1.49 | -1.46 | inactive |
| MAB21L3 (mab-21 like 3) | 1 | -0.57 | -0.63 | -0.71 | -0.36 | inactive |
| SEC11A (SEC11 homolog A, signal peptidase complex subunit) | 1 | -0.85 | -0.86 | -1.11 | -0.57 | inactive |
| TMED4 (transmembrane p24 trafficking protein 4) | 1 | -1.33 | -1.37 | -1.5 | -1.11 | inactive |
